# Experimental data taken from patent US7129271B2, “Compounds for pest control and methods for their use” (The United States of America as represented by the …, priority 2000, dated 2006).
# Test system: I. scapularis nymphs
# Assay: Tick bioassay, modified disposable pipette method, treated vials (Example 9)
# Assay type: in vivo, Ixodes scapularis
# Details: 24 h exposure; probit analysis
# Protocol: Tick Colonies. […] There was no known pesticide used at this location. Ticks were maintained at 21° C., 90% RH, and received a 16:8 h (light:dark) cycle as described in […]. Med. […] Tick and Flea Bioassays. […] A control treated with acetone only was run with each series. Tick and flea susceptibility was evaluated using a modified disposable pipette method. See, Barnard, D. R., et al., J. Econ. […] Three to 4 holes were made in the plastic cap to allow for air exchange. Nymphal ticks and adult fleas were then placed directly into the vials using forceps. Vials containing ticks or fleas were placed in desiccators for 24 h at 21° C. and 90% RH. […] For each time point, if ticks were incapable of movement, maintaining normal posture, leg coordination, ability to right themselves, or any signs of life, they were considered moribund or dead.
row,SMILES,Slope
1,"C=C(C)C1CCC23OC2C(=O)C[C@@H](C)[C@]3(C)C1 (stereo partly shown) [Compound 17, nootkatone-1,10-epoxide]",2.883
2,"C=C(C)[C@@H]1CCC2=CCC[C@@H](C)[C@]2(C)C1 [Compound 5, Valencene]",0.684
3,"C=C(CO)C1CCC2=CCC[C@@H](C)[C@]2(C)C1 (stereo partly shown) [Compound 10, 13-hydroxy-valencene]",2.562
4,"C=C(C=O)C1CCC2=CCC[C@@H](C)[C@]2(C)C1 (stereo partly shown) [Compound 15, valencene-13-aldehyde]",2.755
5,"C=C(C)C1CC=C2C=CCC(C)C2(C)C1 (stereo not shown) [Compound 6, Nootkatene]",1.763
6,"C[C@@H]1CCC=C2CCC(C3(C)CO3)C[C@]21C (stereo partly shown) [Compound 13, valencene-11,12-epoxide]",0.571
7,"C[C@@H]1CC(=O)C2OC23CCC(C2(C)CO2)C[C@@]13C (stereo partly shown) [Compound 18, nootkatone-1,10-11,12-diepoxide]",2.131
